According to PMC6449974:
Like-named read-outs stand apart in the source and are kept apart here.

Key:
[1] = target: native HIV-1 capsid (wild type CA lattice of authentic viral cores) (HIV-1 (pNL4.3-iGFP-ΔEnv and psPAX2)); assay: TIRF fluorescence microscopy binding assay
[2] = target: native HIV-1 capsid (wild type CA lattice of authentic viral cores) (HIV-1 (pNL4.3-iGFP-ΔEnv and psPAX2)); assay: TIRF fluorescence microscopy binding assay; remark: listed apart in the source

## wild type cyclophilin A (CypA) (from UniProt P62937 1-165) (enzyme)
[1]
  Kd: 10.7 µM
[2]
  Kd: 11.6 µM
[2]; scale: CypA loops occupied at saturation per capsid
  stoichiometry N: 987
[2]; scale: CypA molecules bound per capsid at saturation
  stoichiometry N: 1380
